Data as given in PubChem BioAssay AID1259414 (Drosophila RNAi Screening Center, 2018).
In all, the deposit lists about 24,000 reagents; below is a random part of those that have a named target and a result. Over the whole deposit, about 1,210 (5%) were called active. 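Inactive calls also include excluded dsRNAs with several or no targets, genes unexpressed in JW18, and well A1, regardless of score.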 Reagents against one gene are numbered here. A plus sign joins genes that one reagent is predicted to hit. Reagent sequences are not shown.

Test: 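Fly genes that alter Wolbachia amount inside host cells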 (primary screen)
Cells: Drosophila JW18 cells infected with Wolbachia
Reagents: long dsRNA against Drosophila genes, 0.25 µg dsRNA per well of a 384-well plate
Time to read-out: 5 days
Challenge: cells persistently infected with Wolbachia before knock-down; no added drug
Detection: 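Imaged fluorescence in situ signal for Wolbachia 23S rRNA per DAPI-counted host cell, given as a robust z-score within each plate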
Reading the numbers: Wolbachia per cell robust z: higher = more Wolbachia per host cell than the plate typical
Active means: 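Active if absolute robust z reaches 1.5 in two or more of three replicates, leaving out multi- or no-target dsRNAs, genes unexpressed in JW18 and A1 wells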

target gene	dsRNA no.	Wolbachia per cell robust z, rep 1	Wolbachia per cell robust z, rep 2	Wolbachia per cell robust z, rep 3	Call
Syx5 (Syntaxin 5)	1	2.05	0.585	1.11	inactive
Syx5 (Syntaxin 5)	2	1.01	0.854	1.25	inactive
Osi15 (Osiris 15)	1	0.121	-2.15	-1.74	inactive
CrzR (Corazonin receptor)	1	-2.57	-0.781	-0.657	inactive
CrzR (Corazonin receptor)	2	-1.1	-5.32	-0.25	inactive
CG8765	1	-1.15	-2.87	-3.36	active
CG8765	2	-5.97	-5.66	-4.12	inactive
SerRS (Seryl-tRNA synthetase)	1	1.45	0.0531	0.441	inactive
lncRNA:CR41257 (long non-coding RNA:CR41257)	1	0.996	0.355	0.392	inactive
CkIIbeta (Casein kinase II beta subunit)	1	1.01	0.307	0.958	inactive
mav (maverick)	1	1.06	0.262	-3.96	inactive
Mtl (Mig-2-like)	1	-4.49	-0.703	-0.355	inactive
TTLL4B (Tubulin tyrosine ligase-like 4B)	1	-0.742	-0.156	0.675	inactive
TTLL4B (Tubulin tyrosine ligase-like 4B)	2	0.409	0.0812	-0.183	inactive
Or42b (Odorant receptor 42b)	1	-0.447	-0.551	-4.11	inactive
Or42b (Odorant receptor 42b)	2	-0.442	0.0739	-0.318	inactive
CG12546 + CG14452	1	-0.654	-0.938	-1.07	inactive
PpD6 (Protein phosphatase D6)	1	0.187	0.2	1.41	inactive
PpD6 (Protein phosphatase D6)	2	-0.997	-2.37	0.0789	inactive
PpD6 (Protein phosphatase D6)	3	0.926	1.06	0.904	inactive
I-3 (Inhibitor-3)	1	-2.38	-2.16	-2.73	inactive
fdl (fused lobes)	1	1.62	0.087	0.374	inactive
fdl (fused lobes)	2	-0.209	0.239	-0.0557	inactive
dod (dodo)	1	0.677	0.933	1.17	inactive
dod (dodo)	2	0.853	-0.232	-1.74	inactive
CheB42a (Chemosensory protein B 42a)	1	-0.209	0.655	0.312	inactive
CheB42a (Chemosensory protein B 42a)	2	-2	-2.4	0.0347	inactive
CG1888	1	-1.02	-0.545	-0.541	inactive
Ublcp1	1	1.25	0.174	0.269	inactive
Ublcp1	2	0.545	-1.27	0.0961	inactive
Ublcp1	3	-0.1	0.205	0.318	inactive
ProRS-m (Prolyl-tRNA synthetase, mitochondrial)	1	-0.381	-3.43	-0.2	inactive
ProRS-m (Prolyl-tRNA synthetase, mitochondrial)	2	0.085	-0.0884	0.848	inactive
CG15449	1	0.425	0.661	0.912	inactive
pea (peanuts)	1	0.962	3.03	2.67	active
pea (peanuts)	2	-1.71	1.52	1.09	inactive
spag (spaghetti)	1	1.46	-0.628	1.23	inactive
CG7362	1	-0.263	-0.00361	0.125	inactive
CG7362	2	0.387	0.458	-0.534	inactive
Cyp4ac2 (Cytochrome P450 4ac2)	1	0.148	0.387	-2.91	inactive
PGRP-SC1b + PGRP-SC1a	1	1.09	0.103	-0.193	inactive
MED31 (Mediator complex subunit 31)	1	1.76	0.388	0.961	inactive
HHEX (Hematopoietically expressed homeobox)	1	0.149	-1.2	1.34	inactive
HHEX (Hematopoietically expressed homeobox)	2	-0.483	0.458	-0.238	inactive
Bap60 (Brahma associated protein 60kD)	1	0.992	1.28	-0.482	inactive
CG9004	1	0.0875	1.17	0.37	inactive
CG42383	1	-0.258	0.596	-0.851	inactive
CG18269	1	-1.3	-0.681	-0.155	inactive
CG4594	1	-0.673	0.425	0.856	inactive
CG43996 + CG43997	1	0.622	-1.94	0.115	inactive
CG43996 + CG43997	2	-2.83	0.18	-2.07	inactive
CG13786	1	-0.075	2.33	-0.303	inactive
CG13786	2	0.676	0.526	-0.837	inactive
Pkg21D (Protein kinase, cGMP-dependent at 21D)	1	-0.654	-1.22	0.435	inactive
Pkg21D (Protein kinase, cGMP-dependent at 21D)	2	0.459	-2.99	1.22	inactive
CG30403	1	0.714	0.24	0.369	inactive
Mocs2A + Mocs2B + CR42201	1	-0.821	-2.81	0.989	inactive
TTLL6A (Tubulin tyrosine ligase-like 6A)	1	0.769	0.474	0.365	inactive
TTLL6A (Tubulin tyrosine ligase-like 6A)	2	-1.44	-2.78	-0.678	inactive
CG14929 + CG14930	1	1.32	-0.266	-0.0172	inactive
PolA2 (DNA polymerase alpha subunit 2)	1	0.149	-0.465	-0.455	inactive
CG18568	1	-0.274	-1.59	0.911	inactive
CG18568	2	-0.874	-1.98	-1.14	inactive
CG5543	1	0.918	-1.27	-1.06	inactive
CG4328	1	1.5	1.11	0.309	inactive
CG4328	2	1.39	-0.36	-0.473	inactive
Nup358 (Nucleoporin 358kD)	1	-3.3	1.34	0.631	inactive
Nup358 (Nucleoporin 358kD)	2	0.323	-0.146	1.69	inactive
